Reference: paper PMC4204995, “Inhibition of Influenza Virus Replication by Targeting Broad Host Cell Pathways” (PLoS ONE, 2014)

Assay: in vitro
Details: dog

Q: With `COc1cc(NC(C)CCCN)c2ncccc2c1` (stereo not shown) [Primaquine, primaquine diphosphate] as the compound, how does the CC50 read?
A: 126 ± 80.5 µM
